Like-named read-outs stand apart in the source and are kept apart here.
Tests used:
J08 A.92RW020V1V2 [1] = biological target: J08 A.92RW020V1V2 (HIV-1)
Env of SHIV-BaL = Env of SHIV-BaL (SHIV); test: cell-based or functional assay
Env of SHIV SF162P3 = Env of SHIV SF162P3 (SHIV); test: cell-based or functional assay
gp70 B.HXB2/BALV1V2 = biological target: T1, gp70 B.HXB2/BALV1V2 (murine leukemia virus; HIV-1); test: ELISA
T1 chain: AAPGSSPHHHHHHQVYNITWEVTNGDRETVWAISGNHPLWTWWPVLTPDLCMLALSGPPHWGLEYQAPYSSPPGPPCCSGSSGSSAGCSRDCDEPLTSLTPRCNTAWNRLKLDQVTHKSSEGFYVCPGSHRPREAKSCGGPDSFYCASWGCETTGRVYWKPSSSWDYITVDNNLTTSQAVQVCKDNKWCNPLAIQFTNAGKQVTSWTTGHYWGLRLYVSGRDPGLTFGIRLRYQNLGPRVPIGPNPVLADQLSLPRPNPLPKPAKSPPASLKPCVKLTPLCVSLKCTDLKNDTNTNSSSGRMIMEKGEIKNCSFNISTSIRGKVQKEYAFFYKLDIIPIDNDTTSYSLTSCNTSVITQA

J08 C.ZM109.V1V2 = J08 C.ZM109.V1V2 (HIV-1); test: ELISA
AE.A244 gp120 = AE.A244 gp120 (HIV-1)
J08 A.92RW020V1V2 [2] = biological target: J08 A.92RW020V1V2 (HIV-1); test: SPR, mAb captured on anti-Fc
J08 B.HXB2/BALV1V2 = biological target: T2, J08 B.HXB2/BALV1V2 (HIV-1); test: SPR, mAb captured on anti-Fc
T2 construct: also called J08 B.HXB/BAL V1V2
T2 chain: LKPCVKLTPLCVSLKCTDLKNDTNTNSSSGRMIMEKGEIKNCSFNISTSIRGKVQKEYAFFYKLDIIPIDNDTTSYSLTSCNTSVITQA

B.62357 gp140C = biological target: T3, B.62357 gp140C; test: ELISA, OD405 at 10 ug/ml
T3 construct: also called B.62357 140C

G.con gp140CF = biological target: T4, G.con gp140CF; test: ELISA, OD405 at 10 ug/ml
T4 chain: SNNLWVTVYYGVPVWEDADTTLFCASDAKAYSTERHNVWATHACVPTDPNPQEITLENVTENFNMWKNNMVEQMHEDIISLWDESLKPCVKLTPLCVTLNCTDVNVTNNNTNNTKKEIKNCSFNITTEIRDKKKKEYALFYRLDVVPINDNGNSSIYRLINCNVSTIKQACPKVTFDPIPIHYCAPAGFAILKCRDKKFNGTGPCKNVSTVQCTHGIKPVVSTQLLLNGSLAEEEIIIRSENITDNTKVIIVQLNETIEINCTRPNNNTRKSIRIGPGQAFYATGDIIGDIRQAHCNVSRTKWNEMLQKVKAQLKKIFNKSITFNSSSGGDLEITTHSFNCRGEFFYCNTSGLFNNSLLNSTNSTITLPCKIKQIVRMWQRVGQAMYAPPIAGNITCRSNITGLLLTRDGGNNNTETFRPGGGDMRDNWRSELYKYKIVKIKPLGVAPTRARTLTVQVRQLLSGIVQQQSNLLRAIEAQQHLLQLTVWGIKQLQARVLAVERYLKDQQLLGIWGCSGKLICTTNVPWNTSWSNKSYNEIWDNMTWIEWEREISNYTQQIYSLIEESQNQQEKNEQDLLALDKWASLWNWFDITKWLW

B.040 gp140C = test: ELISA, OD405 at 10 ug/ml
AE.con gp140CF = biological target: T5, AE.con gp140CF; test: ELISA, OD405 at 10 ug/ml
T5 chain: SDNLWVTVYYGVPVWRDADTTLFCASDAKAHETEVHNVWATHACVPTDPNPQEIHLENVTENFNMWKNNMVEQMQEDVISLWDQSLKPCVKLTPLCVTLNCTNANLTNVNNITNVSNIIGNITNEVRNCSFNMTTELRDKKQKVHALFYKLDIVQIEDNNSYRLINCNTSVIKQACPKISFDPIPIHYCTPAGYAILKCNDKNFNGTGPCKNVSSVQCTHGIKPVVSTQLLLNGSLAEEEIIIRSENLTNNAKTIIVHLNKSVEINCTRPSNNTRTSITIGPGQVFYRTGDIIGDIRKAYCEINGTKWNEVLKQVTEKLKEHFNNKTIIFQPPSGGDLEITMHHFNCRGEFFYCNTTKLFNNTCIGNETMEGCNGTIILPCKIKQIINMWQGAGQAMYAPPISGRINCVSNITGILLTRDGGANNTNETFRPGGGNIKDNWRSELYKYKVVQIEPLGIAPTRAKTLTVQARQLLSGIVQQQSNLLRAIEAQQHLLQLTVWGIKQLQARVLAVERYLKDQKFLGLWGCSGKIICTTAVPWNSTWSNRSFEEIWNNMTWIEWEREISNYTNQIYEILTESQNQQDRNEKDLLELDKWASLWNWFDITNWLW

B.con gp140CF = test: ELISA, OD405 at 10 ug/ml
C.1086 gp140 = biological target: T6, C.1086 gp140; test: ELISA, OD405 at 10 ug/ml
T6 construct: also called C.1086gp140C
T6 chain: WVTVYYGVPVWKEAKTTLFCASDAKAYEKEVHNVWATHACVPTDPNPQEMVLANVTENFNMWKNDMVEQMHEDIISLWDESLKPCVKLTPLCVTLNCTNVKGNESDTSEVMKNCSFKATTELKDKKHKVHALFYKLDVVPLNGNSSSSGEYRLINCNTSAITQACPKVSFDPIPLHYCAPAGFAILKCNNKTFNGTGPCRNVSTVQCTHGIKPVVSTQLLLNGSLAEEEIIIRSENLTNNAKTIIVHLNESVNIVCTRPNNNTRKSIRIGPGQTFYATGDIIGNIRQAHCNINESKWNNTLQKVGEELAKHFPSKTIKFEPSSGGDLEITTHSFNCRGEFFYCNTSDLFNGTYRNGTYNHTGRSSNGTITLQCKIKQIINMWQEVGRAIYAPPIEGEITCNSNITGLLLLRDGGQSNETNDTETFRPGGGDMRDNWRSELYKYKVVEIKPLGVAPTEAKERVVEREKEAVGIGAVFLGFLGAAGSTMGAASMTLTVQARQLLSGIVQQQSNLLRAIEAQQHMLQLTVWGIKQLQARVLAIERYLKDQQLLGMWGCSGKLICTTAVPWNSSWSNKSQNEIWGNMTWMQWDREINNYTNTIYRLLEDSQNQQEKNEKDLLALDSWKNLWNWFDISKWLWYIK

B1: CH58 (antibody, V domains shown)
VH: EVQLVQSGAEVKKPGESLKISCKGSGYRFTSYWIVWVRQMPGKGLEWMGIIYPGDFDTKYSPSFQGQVTISADKSISTAYLQWSSLKASDTAMYYCARLGGRYYHDSSGYYYLDYWGQGTLVTVSS
VL: NFMLTQPHSVSESPGKTVTISCTRSSGSVASDYVQWYQQRPGSAPTTVVYEDNQRPSGVPDRFSGSIDSSSNSASLTISGLKTEDEADYYCQSYDNSSWVFGGGTKLTVL
For B1, the Kd (J08 A.92RW020V1V2 [1]) was 0.175 µM, the “EC50, neutralization of SHIV-BaL” value (Env of SHIV-BaL) was greater than 50 mg/L and the “EC50, neutralization of SHIV SF162P3” value (Env of SHIV SF162P3) was greater than 50 mg/L. The EC50 (gp70 B.HXB2/BALV1V2) was greater than 0.667 µM, the binding result (J08 C.ZM109.V1V2) was “no binding (tested: 667 nM)” and the IC50 (AE.A244 gp120) was less than 0.01 µM. The Kd (J08 A.92RW020V1V2 [2]) was 0.117 µM, the Kd (J08 B.HXB2/BALV1V2) was 0.323 µM and the binding result (B.62357 gp140C) was “no binding (tested: 10 ug/ml)”. B1: no binding (tested: 10 ug/ml) (G.con gp140CF); no binding (tested: 10 ug/ml) (B.040 gp140C); binds (AE.con gp140CF). B1: no binding (tested: 10 ug/ml) (B.con gp140CF); binds (C.1086 gp140).

From patent US9988424 (DUKE UNIVERSITY, dated 2018)
